# Reference: paper PMC6950293, “A Rapid Extraction Method Combined with a Monoclonal Antibody-Based Immunoassay for the Detection of Amatoxins” (Toxins, 2019)
# Tested on: mAb AMA9G3
# Assay: indirect competitive ELISA (cELISA) with mAb AMA9G3
# Format: binding, mouse
# Settings: AMA9G3 assay
structure (smiles),measurement,value
CC[C@H](C)[C@@H]1NC(=O)CNC(=O)[C@@H]2Cc3c([nH]c4cc(O)ccc34)[S@+]([O-])C[C@H](NC(=O)CNC1=O)C(=O)N[C@@H](CC(N)=O)C(=O)N1C[C@H](O)C[C@H]1C(=O)N[C@@H]([C@@H](C)[C@@H](O)CO)C(=O)N2 [α-amanitin],limit of detection (conservative estimate),1 ng/mL
